Compound potency records, mixed from different reports. Data source: NIAID ChemDB in PubChem.

Shared fields: tests on isolated targets

An empty or dashed field is not shown. ICn is the concentration giving n% inhibition. Inhibition is in % at the dose shown (toxicity tests: loss of growth or viability). Two numbers with a dash give a range or band. Neighbouring rows are from separate reports.

SMILES	protein	agent	tested at	measure	value
COCCNC(=O)c1cc2nccc(-c3ccc(-c4ccc(OC)cc4)cc3)n2n1	RNA-dependent RNA polymerase	Hepatitis C virus		IC50	1–10 µM
CNC(=O)c1c(-c2ccc(F)cc2)oc2cc(N(C)S(C)(=O)=O)c(OCc3ccc(F)cc3F)cc12	Nonstructural protein 5B	Hepatitis C virus		IC50	≤0.5 µM
CS(=O)c1ccc(-c2cc(NC(=O)c3ccc(Cl)cc3Cl)c(C(=O)O)s2)cc1	NS3 ATPase	Hepatitis C virus		IC50	<5 µM
CC[C@@H](C=O)NC(=O)[C@@H]1C[C@@H](OCc2ccccc2)CN1C(=O)[C@@H](NC(=O)c1c(C)cc(C)cc1C)C(C)C	NS3 protease	Hepatitis C virus		Ki	>100 µM
O=C(O)c1nc(-c2ccccc2NS(=O)(=O)c2c(F)cc(Br)cc2F)[nH]c(=O)c1O	HCV polymerase	Hepatitis C virus		IC50	<100 µM
CCc1ccnc2c(-c3nn[nH]n3)cnn12	RNA-dependent RNA polymerase	Hepatitis C virus		IC50	>10 µM
N#CCCCOc1cccc(-c2nc(C(=O)O)c(O)c(=O)[nH]2)c1	HCV polymerase	Hepatitis C virus		IC50	<100 µM
COC(=O)c1cnn2c(C(F)(F)F)cc(-c3ccccc3)nc12	RNA-dependent RNA polymerase	Hepatitis C virus		IC50	>10 µM
CNC(=O)c1c(-c2ccc(F)cc2)oc2cc(N3CCOCC3)c(OCCOC)cc12	Nonstructural protein 5B	Hepatitis C virus		IC50	≤0.5 µM
Cc1ccc(C(=O)N(C)c2cc(-c3ccc(O)cc3)sc2C(=O)O)cc1	NS3 ATPase	Hepatitis C virus		IC50	<5 µM
COc1nc(NCCc2c[nH]c3ccccc23)nc(Nc2ccc3[nH]ncc3c2)n1	DNA polymerase	Hepatitis B virus	0.1 µg/mL	inhibition	32%
c1ccc(COc2ccc(-c3cnc4c(-c5nn[nH]n5)cnn4c3N3CCNCC3)cc2)cc1	RNA-dependent RNA polymerase	Hepatitis C virus		IC50	>10 µM
CC[C@@H](C=O)NC(=O)[C@@H]1C[C@@H](OCc2ccccc2)CN1C(=O)[C@@H](NC(=O)[C@@H](NC(=O)NC)C(C)C)C(C)C	NS3 protease	Hepatitis C virus		Ki	1–100 µM
CC(=O)Nc1cnn2c(C3CCCCC3)c(-c3ccc(OCc4ccccc4)cc3)cnc12	RNA-dependent RNA polymerase	Hepatitis C virus		IC50	>10 µM
O=C(Cc1ccccc1)Nc1cscc1-c1nc(C(=O)O)c(O)c(=O)[nH]1	HCV polymerase	Hepatitis C virus		IC50	<25 µM
CC[C@@H](C=O)NC(=O)[C@@H]1C[C@@H](OCc2noc(-c3ccccc3OC)n2)CN1C(=O)[C@@H](NC(=O)[C@@H](NC(=O)c1cnccn1)C(C)C)C(C)C	NS3 protease	Hepatitis C virus		Ki	1–100 µM
COc1nc(Nc2ccc3[nH]ncc3c2)nc(NC2CC2)n1	DNA polymerase	Hepatitis B virus	1 µg/mL	inhibition	43%
CC(C)(C)OC(=O)NCc1ccc(COC(=O)Nc2ccsc2-c2nc(C(=O)O)c(O)c(=O)[nH]2)cc1	HCV polymerase	Hepatitis C virus		IC50	<25 µM
O=C(O)c1cc2nc(-c3ccc(C(F)(F)F)cc3)cc(-c3ccccc3F)n2n1	RNA-dependent RNA polymerase	Hepatitis C virus		IC50	>10 µM
CNC(=O)c1c(-c2ccc(F)cc2)oc2cc(OCc3ccccc3)c(OC)cc12	Nonstructural protein 5B	Hepatitis C virus		IC50	≤0.5 µM
CC(C)N(C(=O)c1ccc(Cl)cc1Cl)c1cc(-c2ccc3[nH]ccc3c2)sc1C(=O)O	NS3 ATPase	Hepatitis C virus		IC50	<5 µM
O=C(O)c1nc(-c2ccccc2NS(=O)(=O)c2cc(OCC(F)(F)F)ccc2OCC(F)(F)F)[nH]c(=O)c1O	HCV polymerase	Hepatitis C virus		IC50	<100 µM
Cc1cccc(C)c1N1CCN(C(=O)Nc2cc(-c3ccccc3)sc2C(=O)O)CC1	NS3 ATPase	Hepatitis C virus		IC50	>20 µM
C=CCOc1cc2c(C(=O)NC)c(-c3ccc(F)cc3)oc2cc1NCC	Nonstructural protein 5B	Hepatitis C virus		IC50	≤0.5 µM
O=C(O)c1sc(-c2ccccc2)cc1NC(=O)N1CCN(c2ccc([N+](=O)[O-])cc2)CC1	NS3 ATPase	Hepatitis C virus		IC50	<5 µM
Cn1nnnc1-c1cnn2c(C3CCCCC3)c(-c3ccc(OCc4ccccc4)cc3)cnc12	RNA-dependent RNA polymerase	Hepatitis C virus		IC50	>10 µM
Nc1ccc(-c2nc(C(=O)O)c(O)c(=O)[nH]2)cc1	HCV polymerase	Hepatitis C virus		IC50	<100 µM
COc1nc(NCCc2ccccn2)nc(Nc2ccc3cn[nH]c3c2)n1	DNA polymerase	Hepatitis B virus	0.01 µg/mL	inhibition	20%
COc1ccc(S(=O)(=O)Nc2cc(-c3ccccc3)sc2C(=O)O)c(OC)c1	NS3 ATPase	Hepatitis C virus		IC50	5–20 µM
O=C(Cc1ccc(Br)cc1)Nc1ccsc1-c1nc(C(=O)O)c(O)c(=O)[nH]1	HCV polymerase	Hepatitis C virus		IC50	<25 µM
CC[C@@H](C=O)NC(=O)[C@@H]1C[C@@H](OCc2ccccc2)CN1C(=O)[C@@H](NC(=O)Cc1ccc(NC(=O)Cc2ccccc2)cc1)C(C)C	NS3 protease	Hepatitis C virus		Ki	1–100 µM
COc1nc(Nc2ccc3cn[nH]c3c2)nc(N2CCC(O)CC2)n1	DNA polymerase	Hepatitis B virus		IC50	>1 µg/mL
CC[C@@H](C=O)NC(=O)[C@@H]1C[C@@H](OCc2ccccc2)CN1C(=O)[C@@H](NC(=O)c1c(O)ccc2ccccc12)C(C)C	NS3 protease	Hepatitis C virus		Ki	1–100 µM
CCOC(=O)C1=CN(N2CCN(c3nc(Nc4ccc5cn[nH]c5c4)nc(OC)n3)CC2)C(SC)N=C1	DNA polymerase	Hepatitis B virus	0.01 µg/mL	inhibition	4%
O=C(O)c1cc2nc(C3CCCCC3)c(-c3ccc(OCc4ccccc4)cc3)cn2n1	RNA-dependent RNA polymerase	Hepatitis C virus		IC50	1–10 µM
O=C(O)c1sc(-c2ccccc2)cc1NS(=O)(=O)c1ccccc1[N+](=O)[O-]	NS3 ATPase	Hepatitis C virus		IC50	<5 µM

The last 5 rows once more:

SMILES,protein,agent,tested at,measure,value
COc1nc(Nc2ccc3cn[nH]c3c2)nc(N2CCC(O)CC2)n1,DNA polymerase,Hepatitis B virus,,IC50,>1 µg/mL
CC[C@@H](C=O)NC(=O)[C@@H]1C[C@@H](OCc2ccccc2)CN1C(=O)[C@@H](NC(=O)c1c(O)ccc2ccccc12)C(C)C,NS3 protease,Hepatitis C virus,,Ki,1–100 µM
CCOC(=O)C1=CN(N2CCN(c3nc(Nc4ccc5cn[nH]c5c4)nc(OC)n3)CC2)C(SC)N=C1,DNA polymerase,Hepatitis B virus,0.01 µg/mL,inhibition,4%
O=C(O)c1cc2nc(C3CCCCC3)c(-c3ccc(OCc4ccccc4)cc3)cn2n1,RNA-dependent RNA polymerase,Hepatitis C virus,,IC50,1–10 µM
O=C(O)c1sc(-c2ccccc2)cc1NS(=O)(=O)c1ccccc1[N+](=O)[O-],NS3 ATPase,Hepatitis C virus,,IC50,<5 µM